Construct, isoform or probe ends are uncertain for at least one entry.
Tested on: RpoE1-His6 + core RNA polymerase
Test: EMSA
Details: with E. coli core RNAP; 10 mM Tris, 50 mM KCl, 1 mM DTT, pH 7.5, room temperature 20 min; 4% PAGE in 0.5x TBE; recombinant protein; protein details: 6xHis (N-terminal, pET30a); label: FAM (primer labeled); probe letters rebuilt from the primers and the genome

## GCGAGCGATCGCAGATGTTTAGCGCGCCTTCGCGCATCTGCGTGCCGAACACCGCATCCGTACGCCCACGCATCGTCCTGTGATGCACCGTCAAGATACGCCGGCGCATCGTCTGGCCTTCGTCGCTATGCAGGTGCGGGATCCACTTCGCAGTTTGCAAGACAGAGTGAGAATTTTTGAATTTCTAGCTGCTGCGAAGTGAGAAATTCTATTGGATCCGCTGCATACAATCGTTTGCGCCCACCACAACGGCGCCTTTTGTTGTTTTTGCTCCTCCCCTTCAGAGAGCCCGGCATGATCCTTTCGACCTACTTCGCAGCGATCTCTGCGTTGTCTTACGCAGACCGTCTTCCG (double strand) [PhrpX]
  binding result: binds

— publication PMC6085468
